Measured values as given in US20240109955A1.

B1: MX1042 (bispecific antibody)
chain: DTVMTQSPLSLPVTPGEPASISCRSSQSLLNSNGYNYLDWYVQKPGQSPQLLIYLGSNRASGVPDRFSGSGSGTDFTLKISRVEAEDVGVYYCMQPLQTPLFTFGPGTKVEIKGGSSGEIVLTQSPGTLSLSPGETATLSCRASQSFSSDLAWYQQKPGQAPRLLIYGASSRATGIPDRFSGSGSGTDFTLTISRLEPADFAVYYCQQYGSSPPVTFGGGTKVEIKGGGGSGGSGSGGGGSASGSGEVQLVESGGGLIQPGGSLRLSCAASGVIVSYNYMNWVRQAPGKGLEWVSVIYSGGSTFYADSVRGRFTISRDNSKNTLYLQMNSLRAEDTAVYYCARDLGPAGAFDIWGLGTMVTVSSGGSSGQVTLRESGPALVKPTQTLTLTCTFSGFSLSTRGVCVSWIRQPPGKALEWLAFIDWDDDKYYNTSLKTRLTISKDTSKNQVVLTMTNVHPVDTATYYCARISSHHGSSWCTTFDYWGQGALVTVSAASGGSGDKTHTCPPCPAPELLGGPSVFLFPPKPKDTLMISRTPEVTCVVVDVSHEDPEVKFNWYVDGVEVHNAKTKPREEQYNSYVVSVLTVLHQDWLNGKEYKCKVSNKALPAPIEKTISKAKGQPREPQVYTLPPSRDELTKNQVSLTCLVKGFYPSDIAVEWESNGQPENNYKTTPPVLDSDGSFFKKLTVDKSRWQQGNVFSCSVLHEALHSHYTQKSLSLSPG
B2: MX1043 (bispecific antibody)
chain: EIVLTQSPGTLSLSPGETATLSCRASQSFSSDLAWYQQKPGQAPRLLIYGASSRATGIPDRFSGSGSGTDFTLTISRLEPADFAVYYCQQYGSSPPVTFGGGTKVEIKGGSSGQTVVTQEPSFSVSPGGTVTLTCGLSSGSVSTAYFPSWYQQTPGQAPRTLIYGTNTRSSGVPDRFSGSILGNKAALTITGAQADDESDYYCVLYMGRGIVVFGGGTKLTVLGGGGSGGSGSGGGGSASGSGQVQLVESGGGVVQPGRSLRLSCAASGFTLSSYGMHWVRQAPGKGLEWVAVISYDGSNKYYVDSVKGRFTISRDNSKNTLYLQMNSLRAEDTAVYYCRWAYWELLPDYYYGMDVWGQGTTVTVSSGGSSGEVQLVESGGGLIQPGGSLRLSCAASGVIVSYNYMNWVRQAPGKGLEWVSVIYSGGSTFYADSVRGRFTISRDNSKNTLYLQMNSLRAEDTAVYYCARDLGPAGAFDIWGLGTMVTVSSASGGSGDKTHTCPPCPAPELLGGPSVFLFPPKPKDTLMISRTPEVTCVVVDVSHEDPEVKFNWYVDGVEVHNAKTKPREEQYNSYVVSVLTVLHQDWLNGKEYKCKVSNKALPAPIEKTISKAKGQPREPQVYTLPPSRDELTKNQVSLTCLVKGFYPSDIAVEWESNGQPENNYKTTPPVLDSDGSFFKKLTVDKSRWQQGNVFSCSVLHEALHSHYTQKSLSLSPG
B3: MX1069 (protein)
chain 1: QTVVTQEPSFSVSPGGTVTLTCGLSSGSVSTAYFPSWYQQTPGQAPRTLIYGTNTRSSGVPDRFSGSILGNKAALTITGAQADDESDYYCVLYMGRGIVVFGGGTKLTVLGGSSGEIVLTQSPGTLSLSPGETATLSCRASQSFSSDLAWYQQKPGQAPRLLIYGASSRATGIPDRFSGSGSGTDFTLTISRLEPADFAVYYCQQYGSSPPVTFGGGTKVEIKGGGGSGGSGSGGGGSASGSGEVQLVESGGGLIQPGGSLRLSCAASGVIVSYNYMNWVRQAPGKGLEWVSVIYSGGSTFYADSVRGRFTISRDNSKNTLYLQMNSLRAEDTAVYYCARDLGPAGAFDIWGLGTMVTVSSGGSSGQVQLVESGGGVVQPGRSLRLSCAASGFTLSSYGMHWVRQAPGKGLEWVAVISYDGSNKYYVDSVKGRFTISRDNSKNTLYLQMNSLRAEDTAVYYCRWAYWELLPDYYYGMDVWGQGTTVTVSSASGGSGDKTHTCPPCPAPELLGGPSVFLFPPKPKDTLMISRTPEVTCVVVDVSHEDPEVKFNWYVDGVEVHNAKTKPREEQYNSYVVSVLTVLHQDWLNGKEYKCKVSNKALPAPIEKTISKAKGQPREPQVYTLPPCRDELTKNQVSLWCLVKGFYPSDIAVEWESNGQPENNYKTTPPVLDSDGSFFKKLTVDKSRWQQGNVFSCSVLHEALHSHYTQKSLSLSPG
chain 2: EIVLTQSPGTLSLSPGETATLSCRASQSFSSDLAWYQQKPGQAPRLLIYGASSRATGIPDRFSGSGSGTDFTLTISRLEPADFAVYYCQQYGSSPPVTFGGGTKVEIKGGSSGDTVMTQSPLSLPVTPGEPASISCRSSQSLLNSNGYNYLDWYVQKPGQSPQLLIYLGSNRASGVPDRFSGSGSGTDFTLKISRVEAEDVGVYYCMQPLQTPLFTFGPGTKVEIKGGGGSGGSGSGGGGSASGSGQVTLRESGPALVKPTQTLTLTCTFSGFSLSTRGVCVSWIRQPPGKALEWLAFIDWDDDKYYNTSLKTRLTISKDTSKNQVVLTMTNVHPVDTATYYCARISSHHGSSWCTTFDYWGQGALVTVSAGGSSGEVQLVESGGGLIQPGGSLRLSCAASGVIVSYNYMNWVRQAPGKGLEWVSVIYSGGSTFYADSVRGRFTISRDNSKNTLYLQMNSLRAEDTAVYYCARDLGPAGAFDIWGLGTMVTVSSASGGSGDKTHTCPPCPAPELLGGPSVFLFPPKPKDTLMISRTPEVTCVVVDVSHEDPEVKFNWYVDGVEVHNAKTKPREEQYNSYVVSVLTVLHQDWLNGKEYKCKVSNKALPAPIEKTISKAKGQPREPQVCTLPPSRDELTKNQVSLSCAVKGFYPSDIAVEWESNGQPENNYKTTPPVLDSDGSFFLVSKLTVDKSRWQQGNVFSCSVLHEALHSHYTQKSLSLSPG
B4: MX1055 (protein)
chain 1: EIVMTQSPAILSVSPGERATLSCRASQSVAINLAWYQQKPGQAPRLLIYAASSRATGIPGRFSGSGSETNFTLTISSLQSGDFAVYYCQQYITWPPSYTFGQGTKLEIKGGSSGDTVMTQSPLSLPVTPGEPASISCRSSQSLLNSNGYNYLDWYVQKPGQSPQLLIYLGSNRASGVPDRFSGSGSGTDFTLKISRVEAEDVGVYYCMQPLQTPLFTFGPGTKVEIKGGGGSGGSGSGGGGSASGSGQVTLRESGPALVKPTQTLTLTCTFSGFSLSTRGVCVSWIRQPPGKALEWLAFIDWDDDKYYNTSLKTRLTISKDTSKNQVVLTMTNVHPVDTATYYCARISSHHGSSWCTTFDYWGQGALVTVSAGGSSGEVQLVESGGALIQPGGSLRLSCAASGIIVSANYMSWVRQAPGKGLEWVSVIYSGGSTFYADSVKGRFTISRDNSKNTLYLEMNSLRAEDTAVYYCARDAPILGVSDWGQGTLVTVSSASGGSGDKTHTCPPCPAPELLGGPSVFLFPPKPKDTLMISRTPEVTCVVVDVSHEDPEVKFNWYVDGVEVHNAKTKPREEQYNSYVVSVLTVLHQDWLNGKEYKCKVSNKALPAPIEKTISKAKGQPREPQVYTLPPCRDELTKNQVSLWCLVKGFYPSDIAVEWESNGQPENNYKTTPPVLDSDGSFFKKLTVDKSRWQQGNVFSCSVLHEALHSHYTQKSLSLSPG
chain 2: DTVMTQSPLSLPVTPGEPASISCRSSQSLLNSNGYNYLDWYVQKPGQSPQLLIYLGSNRASGVPDRFSGSGSGTDFTLKISRVEAEDVGVYYCMQPLQTPLFTFGPGTKVEIKGGSSGQTVVTQEPSFSVSPGGTVTLTCGLSSGSVSTAYFPSWYQQTPGQAPRTLIYGTNTRSSGVPDRFSGSILGNKAALTITGAQADDESDYYCVLYMGRGIVVFGGGTKLTVLGGGGSGGSGSGGGGSASGSGQVQLVESGGGVVQPGRSLRLSCAASGFTLSSYGMHWVRQAPGKGLEWVAVISYDGSNKYYVDSVKGRFTISRDNSKNTLYLQMNSLRAEDTAVYYCRWAYWELLPDYYYGMDVWGQGTTVTVSSGGSSGQVTLRESGPALVKPTQTLTLTCTFSGFSLSTRGVCVSWIRQPPGKALEWLAFIDWDDDKYYNTSLKTRLTISKDTSKNQVVLTMTNVHPVDTATYYCARISSHHGSSWCTTFDYWGQGALVTVSAASGGSGDKTHTCPPCPAPELLGGPSVFLFPPKPKDTLMISRTPEVTCVVVDVSHEDPEVKFNWYVDGVEVHNAKTKPREEQYNSYVVSVLTVLHQDWLNGKEYKCKVSNKALPAPIEKTISKAKGQPREPQVCTLPPSRDELTKNQVSLSCAVKGFYPSDIAVEWESNGQPENNYKTTPPVLDSDGSFFLVSKLTVDKSRWQQGNVFSCSVLHEALHSHYTQKSLSLSPG

Target: SARS-CoV-2 spike protein, Omicron sublineage BA.4/5 (SARS-CoV-2), P0DTC2
Test: cell-based or functional assay

| Binder | IC50 (pseudovirus neutralization) | IC80 (pseudovirus neutralization) |
| --- | --- | --- |
| B1 | 1.37 nM | 2.75 nM |
| B2 | 3.74 nM | 10.7 nM |
| B3 | 1.47 nM | 2.44 nM |
| B4 | 1.3 nM | 3.32 nM |

Target: SARS-CoV-2 spike protein, Omicron sublineage BF.7 (SARS-CoV-2), P0DTC2
Test: cell-based or functional assay

| Binder | IC50 (pseudovirus neutralization) | IC80 (pseudovirus neutralization) |
| --- | --- | --- |
| B1 | 19.3 nM | 30.8 nM |
| B2 | 56.9 nM | 134 nM |
| B3 | 12.5 nM | 29 nM |
| B4 | 16.2 nM | 28.2 nM |

Target: SARS-CoV-2 spike protein, Omicron sublineage BQ.1.1 (SARS-CoV-2), P0DTC2
Test: cell-based or functional assay

| Binder | IC50 (pseudovirus neutralization) | IC80 (pseudovirus neutralization) |
| --- | --- | --- |
| B1 | 0.29 nM | 3.5 nM |
| B2 | 2.35 nM | 12.3 nM |
| B3 | 1.89 nM | 6.5 nM |
| B4 | 0.12 nM | 3.41 nM |
